From paper PMC6459484, “Synthetic surfactin analogues have improved anti-PEDV properties” (PLoS ONE, 2019)
Square brackets hold non-standard residues; d marks the D form. Peptide text beside a SMILES is read from it. * marks the point of attachment. X1 = CCCCCCCc1ccc(-c2ccc(C(=O)*)cc2)cc1; Palmitoyl = CCCCCCCCCCCCCCCC(=O)*

System: PEDV CV777
Experiment: Plaque reduction assay (anti-PEDV activity)
Type: cell-based, Porcine epidemic diarrhea virus
Conditions: ratio of hemolytic CC50 (porcine RBCs) to anti-PEDV EC50
Protocol: Cercopithecus aethiops kidney epithelial cells (Vero, ATCC, CCL-81) were cultured in high glucose DMEM (Gibco, US), supplemented with 10% fetal bovine serum (FBS, GIBCO), at 37 °C in a 5% CO2 humidified atmosphere. Cells were routinely seeded at a density of 2×10^5 /mL in plastic tissue culture flasks (25 cm^2 flasks, Corning, USA) and passaged every 3–4 days. PEDV CV777 was provided by the Jiangsu Academy of Agricultural Sciences (JAAS).
Vero cells were seeded at 2 × 10^5 cells/well in 24-well tissue culture plates and incubated 18–24 h at 37 °C until approximately 95% confluency was reached. 100 PFU of PEDV mixed with an equal volume of SLP in DMEM or DMEM alone were incubated 10 minutes at 37 °C, then added into the wells of the Vero cells and incubated 30 minutes at 4 °C. Cells were washed 3 times with DMEM then overlaid with DMEM/1% agar and incubated 72 hours at 37 °C. The cells were fixed with 4% formaldehyde, then stained with 0.1% crystal violet after the agar overlay was removed. The data are representative of 3 biological replicates and each plaque assay was performed in triplicate and values are expressed as means ± the standard deviation. Curve fitting and EC50 were calculated with GraphPad Prism 6 using the log[inhibitor] vs. response equation.
The SLPs were tested for anti-PEDV activity using a plaque reduction assay. Serial dilutions of SLPs were incubated with an equal volume of PEDV then aliquoted onto precooled cells in 12-well plates. After the virus has adsorbed to the cells at 4 °C, SLPs were washed away. The adsorbed virus particles were then counted by plaque forming assays (Fig 2A). The results were fitted to a sigmoid-curve and plotted Fig 2B. All SLPs have potent anti-PEDV effects above 50 μg/ml, but differences in their anti-PEDV effect.
Fig 2 Anti-PEDV activities of lipopeptides. (A) PEDV was incubated with series concentrations of SLPs for 10 minutes at 37 °C. After washing cells of unadsorbed virus, the remaining infectious particles was detected by plaque assay. (B) Anti-PEDV activity (% remaining PFU) plotted as a function of lipopeptide concentration. The results of three independent experiments are shown as means ± standard deviation. 100% represents plaque counts in the control (no lipopeptide) sample.

Row | Compound | Selectivity index, SI = CC50/EC50
1 | CCCCCCCCCCCCCCCC(=O)N[C@@H](CCC(=O)O)C(=O)N[C@H](C(=O)N[C@H](CC(C)C)C(=O)N[C@@H](CC(=O)O)C(=O)N[C@H](CC(C)C)C(N)=O)C(C)C [SLP3] (Palmitoyl-EV[dL]D[dL]-NH2) | 4.1
2 | CCCCCCCCCCCCCCCC(=O)N[C@@H](CCC(=O)O)C(=O)N[C@H](C(=O)N[C@@H](CC(C)C)C(=O)N[C@@H](CC(=O)O)C(=O)N[C@@H](CC(C)C)C(N)=O)C(C)C [SLP7] (Palmitoyl-EVLDL-NH2) | 19.7
3 | CCCCCCCCCCCCCCCC(=O)N[C@@H](CCC(=O)O)C(=O)N[C@@H](CC(=O)O)C(=O)N[C@H](C(=O)N[C@H](CC(C)C)C(=O)N[C@H](CC(C)C)C(N)=O)C(C)C [SLP9] (Palmitoyl-EDV[dL][dL]-NH2) | 4.1
4 | CCCCCCCc1ccc(-c2ccc(C(=O)N[C@@H](CCC(=O)O)C(=O)N[C@H](C(=O)N[C@H](CC(C)C)C(=O)N[C@@H](CC(=O)O)C(=O)N[C@H](CC(C)C)C(N)=O)C(C)C)cc2)cc1 [SLP10] (X1-EV[dL]D[dL]-NH2) | 7.8
5 | Surfactin [reference compound] | 4.0
